Compound potency records, mixed from different reports. Data source: NIAID ChemDB in PubChem.

Shared fields: whole-cell or culture tests; agent: Human cytomegalovirus; method: virus yield; measure: EC90

An empty or dashed field is not shown.

SMILES | cells | strain or isolate | result
OC[C@H]1O[C@@H](n2c(Br)nc3cc(Cl)c(Cl)cc32)[C@H](O)[C@@H]1O | HFF | 2916R (1263W94-resistant) | 46 µM
OC[C@H]1O[C@@H](n2c(Br)nc3cc(Cl)c(Cl)cc32)C[C@@H]1O | HFF | TOWNE | 6 µM
O=C(NCc1ccc(Cl)cc1)c1c[nH]c2c(F)cc(CCCO)cc2c1=O | - | DAVIS | 4.8 µM
O[C@@H]1[C@H](O)CO[C@H]1n1c(Cl)nc2cc(Cl)c(Cl)cc21 | HFF | TOWNE | 0.41 µM
Nc1nc2c(ncn2COC(CO)CO)c(=O)[nH]1 | - | TOWNE | 1.4 µM
OC[C@H]1O[C@@H](n2c(Br)nc3cc(Cl)c(Cl)cc32)[C@H](O)[C@@H]1O | - | - | 1.4 µM
Cn1cc(C(=O)NCc2ccc(Cl)cc2)c(=O)c2cc(CN3CCOCC3)ccc21 | HFF | DAVIS | 3.3 µM
OC[C@H]1O[C@@H](n2c(Cl)nc3cc(Cl)c(Cl)cc32)C[C@@H]1O | HFF | TOWNE | 12 µM
Cc1cn(COC(CO)CO)c2ncnc(N)c12 | HFF | TOWNE | >100 µM
OC[C@H]1O[C@@H](n2c(Br)nc3cc(Cl)c(Cl)cc32)[C@H](O)[C@@H]1O | HFF | TOWNE | 0.45 µM
COc1cc(OC)c(NC(=S)Nc2ccc(NC(=O)c3ccco3)cc2)cc1Cl | - | 16 isolates | 0.15 µM
Nc1ncnc2c1ncn2C=C1CC1CO | KB | AD169 | 1–2 µM
Nc1nc2c(ncn2COC(CO)CO)c(=O)[nH]1 | HFF | AD169 | 1.2 µM
Nc1nc2c(ncn2COC(CO)CO)c(=O)[nH]1 | HFF | TOWNE | 4 µM
O=C(NCc1ccc(Cl)cc1)c1c[nH]c2c(F)cccc2c1=O | - | DAVIS | >50 µM

Repeating the final 2 entries:

SMILES | cells | strain or isolate | result
Nc1nc2c(ncn2COC(CO)CO)c(=O)[nH]1 | HFF | TOWNE | 4 µM
O=C(NCc1ccc(Cl)cc1)c1c[nH]c2c(F)cccc2c1=O | - | DAVIS | >50 µM

ECn: concentration that inhibits the pathogen or its effect by n%. Conditions beyond the fields shown may differ between rows. Two numbers with a dash give a range or band.